In PubChem BioAssay AID1943 (The Scripps Research Institute Molecular Screening Center, 2009):
The list shows a part of the results, in another mix than the full data. Calls of active or inactive are those of the source.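 Rule for the calls: active = inhibition above the mean of all tested compounds plus 3 SD, cutoff set per campaign (cut at about 36% in these data); inactive = the rest.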

What follows are compounds tested on Hepatitis C virus NS3 helicase (assay: blockers of HCV NS3 DNA unwinding – biochemical, Cy5 molecular beacon fluorescence, triplicate, confirmation (AID 1943)). Conditions: at 10.9 µM, stronger effect = higher value.
In short: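 Assay system: HCV NS3 helicase fragment enzyme; also added: Quenchable beacon DNA duplex and ATP; schedule: compound added before ATP, reads at 0 and 60 min, 25 °C; measured by: Cy5 fluorescence quenching by beacon hairpin; control set: DMSO and thioflavine S wells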

Compound	inhibition
Nc1cccc2c([As](=O)(O)O)cccc12	inactive: -16.6%
O=[N+]([O-])c1cc([N+](=O)[O-])c(CCN2CCOCC2)c([N+](=O)[O-])c1	inactive: 13.2%
C[N+]1=C2C=CC=CC=C2SC12C([N+](=O)[O-])=CC([N+](=O)[O-])=C[C-]2[N+](=O)[O-] (stereo not drawn)	inactive: 15.8%
